A mixed list of measured activities; the numbers were collected in NIAID ChemDB.

All rows: whole-cell or culture tests; species: Candida parapsilosis

Inhibition is in % at the dose shown (toxicity tests: loss of growth or viability). Blank or dashed fields: not listed here. Lines come from different laboratories, so protocols vary. A number after MIC or MFC names an inhibition level or a share of isolates.

SMILES | strain | read by | measure | tested at | value
CCC(=O)OC1CCN(CC(O)(Cn2cncn2)c2ccc(F)cc2F)CC1 | 0306392 | broth dilution | MIC80 |  | 0.634 µM
CC1C(=O)N(CCCc2ccccc2)C(=O)C1C | CCC 124-2000 | broth dilution / turbidity | MIC |  | 125 µg/mL
Clc1ccc(C(c2ccccc2)N2CCN(CCn3ccnc3)CC2)cc1 |  | broth dilution | MFC |  | >256 µg/mL
CCC(C)CC(C)CCCCCCCCC(=O)N[C@H]1C[C@@H](O)[C@H](NCCN)NC(=O)[C@@H]2[C@@H](O)CCN2C(=O)[C@H]([C@H](O)CCN)NC(=O)[C@H]([C@H](O)[C@@H](O)c2ccc(O)cc2)NC(=O)[C@@H]2C[C@@H](O)CN2C(=O)[C@H]([C@@H](C)O)NC1=O |  | broth dilution | MIC50 |  | 1 µg/mL
Clc1ccc(C(c2ccccc2)n2nnc3ccccc32)cc1 |  | broth dilution | MFC |  | >256 µg/mL
Nc1ncccc1-c1cc(Cc2ccc(COc3ccccn3)cc2)no1 |  | broth dilution | MIC90 |  | 0.016 µg/mL
O=C(/C=C/c1cccc(F)c1)OC1CCN(CC(O)(Cn2cncn2)c2ccc(F)cc2F)CC1 | 0306392 | broth dilution | MIC80 |  | 0.129 µM
CC(C)(O)c1cn(-c2cccc3ccccc23)nn1 | URM 3627 | broth dilution | inhibition | 2048 µg/mL | 0%
O=C(OC1CCN(CC(O)(Cn2cncn2)c2ccc(F)cc2F)CC1)C(F)(F)F | 0306392 | broth dilution | MIC80 |  | 9.214 µM
CC1CC(=O)N(c2ccccc2)C1=O | CCC 124-2000 | broth dilution / turbidity | MIC |  | 125 µg/mL
CC(C)(O)c1cn(-c2ccc([N+](=O)[O-])cc2)nn1 | URM 4261 | broth dilution | inhibition | 2048 µg/mL | 0%
C[C@@H]1CC(=O)N(c2ccc([N+](=O)[O-])cc2)C1=O | CCC 124-2000 | broth dilution / turbidity | MIC |  | 62.5 µg/mL
CCCC(C)(C)C(=O)OC1CCN(CC(O)(Cn2cncn2)c2ccc(F)cc2F)CC1 | 0306392 | broth dilution | MIC80 |  | 0.573 µM
C=CCc1ccc(O)c(OC)c1 | 2559 | turbidity | MIC90 |  | 500 µg/mL
C[C@@H](c1ncncc1F)[C@](O)(Cn1cncn1)c1ccc(F)cc1F |  | broth dilution | MIC50 |  | 0.016 µg/mL
CC(C)(O)c1cn(-c2ccc(Cl)cc2)nn1 | URM 4970 | broth dilution | MIC |  | 128 µg/mL
Clc1ccc(C(c2ccccc2)N2CCN(CCn3cncn3)CC2)cc1 |  | broth dilution | MFC |  | 256 µg/mL
Nc1ncccc1-c1cc(Cc2ccc(COc3ccccn3)cc2)no1 |  | broth dilution | MIC50 |  | 0.03 µg/mL
O=C(/C=C/c1ccccc1[N+](=O)[O-])OC1CCN(CC(O)(Cn2cncn2)c2ccc(F)cc2F)CC1 | 0306392 | broth dilution | MIC80 |  | 0.487 µM
O=C(c1ccccc1)C(c1ccccc1)n1cncn1 |  | agar | MIC90 |  | 64 µg/mL
O=C(/C=C/c1ccc(Cl)cc1Cl)OC1CCN(CC(O)(Cn2cncn2)c2ccc(F)cc2F)CC1 | 0306392 | broth dilution | MIC80 |  | 0.466 µM
C[C@@H]1C(=O)N(c2ccccc2)C(=O)[C@@H]1C | CCC 124-2000 | broth dilution / turbidity | MIC |  | 31.3 µg/mL
O=C(OC1CCN(CC(O)(Cn2cncn2)c2ccc(F)cc2F)CC1)C(F)(F)Cl | 0306392 | broth dilution | MIC80 |  | 35.5 µM
c1ccc(C(c2ccccc2)n2cncn2)cc1 |  | broth dilution | MFC |  | 128 µg/mL

4 of the rows above, restated:

SMILES	strain	read by	measure	tested at	value
CC(C)(O)c1cn(-c2ccc([N+](=O)[O-])cc2)nn1	URM 4261	broth dilution	inhibition	2048 µg/mL	0%
Nc1ncccc1-c1cc(Cc2ccc(COc3ccccn3)cc2)no1		broth dilution	MIC50		0.03 µg/mL
Clc1ccc(C(c2ccccc2)N2CCN(CCn3ccnc3)CC2)cc1		broth dilution	MFC		>256 µg/mL
O=C(OC1CCN(CC(O)(Cn2cncn2)c2ccc(F)cc2F)CC1)C(F)(F)Cl	0306392	broth dilution	MIC80		35.5 µM